Results of unrelated studies side by side (data: NIAID ChemDB).

All rows: growth or infection tests; species: Aspergillus fumigatus; endpoint: MIC

Blank or dashed fields: not listed here.

CN1CCN(c2n[nH]c(N3C(=O)CS[C@@H]3c3ccccc3)n2)CC1 ; strain or isolate: 168.95 ; method: broth dilution ; result: 100 µg/mL
NC(=S)c1ccnc(SCc2ccccc2Cl)c1 ; strain or isolate: 231 ; result: >1000 µM
CC1CCC2(OC1)OC1CC3C4CCC5C[C@@H](OC6OC(CO)C(OC7OC(CO)C(O)C(OC8CC(OC9OC(CO)C(O)C(O)C9O)C(O)C(CO)O8)C7OC7OC(CO)C(O)C(O)C7O)C(O)C6O)[C@H](O)C[C@]5(C)C4CC[C@]3(C)C1[C@@H]2C ; method: broth dilution ; result: 30 µg/mL
Cn1ncc(C(c2ccccc2)n2cncn2)c1-c1ccccc1 ; result: >200 µM
COc1cccc2c1C(=O)c1c(O)c3c(c(O)c1C2=O)C[C@@](O)(C(=O)CO)C[C@@H]3O[C@H]1C[C@H](N)[C@@H](O)[C@H](C)O1 ; strain or isolate: NCPF 2010 ; result: >100 µM
NC(=S)c1ccnc(SCc2ccccc2)c1 ; strain or isolate: 231 ; result: >500 µM
CC(/C=C/C=C(\C)C(O)C(C)C(=O)O[C@H]1C[C@@H](C)C=C2C=C[C@]3(C)O[C@@H](O)CC(=O)[C@]3(C)[C@H]21)=C\C=C\C(=O)O ; strain or isolate: AC3449 ; result: 50 µg/mL
CN1CCN(c2n[nH]c(N3C(=O)CS[C@@H]3c3ccc4c(c3)OCO4)n2)CC1 ; strain or isolate: 119 ; method: broth dilution ; result: 50 µg/mL
CCCCCCCC/C=C\CCCCCCCC(=O)N[C@H](C(=O)N1C[C@H](C)C[C@H]1C(=O)N[C@H](C(=O)N[C@@H](CCO)C(=O)N[C@@H](C)CO)C(C)C)[C@@H](C)O ; strain or isolate: MF5668 ; method: broth dilution / visual reading ; result: >32 µg/mL
CCCCCCCCCC[C@H]1NC(=O)[C@H](CC(C)(C)C)NC(=O)[C@H](CCCCN)NC(=O)CNC(=O)[C@H]1O ; result: 32 µg/mL
Cc1ccc(C2=NN(Cc3n[nH]c(=S)n3-c3ccccc3)C(=O)CC2)cc1 ; result: 8 µg/mL
CCCc1ccc(NS(=O)(=O)c2ccc(CN(C)CC(O)(Cn3cncn3)c3ccc(F)cc3F)cc2)cc1 ; strain or isolate: 98 003 ; method: resazurin ; result: 1.56 µg/mL
CCOC(=O)c1sc2cc(-c3ccc(Br)cc3)oc(=O)c2c1N ; strain or isolate: AF-27 ; result: >100 µg/mL
Cc1cccc(CC(=O)Nc2nc(-c3cccc(Cl)c3)cs2)c1 ; strain or isolate: NCIM 902 ; result: 6.25 µg/mL
CN(Cc1ccc(S(=O)(=O)N2CCOCC2)cc1)CC(O)(Cn1cncn1)c1ccc(F)cc1F ; strain or isolate: 98 003 ; method: resazurin ; result: 3.25 µg/mL
CC(C)CCCCCCCCCC1CC(=O)NCC(=O)N[C@@H](CCCCN)C(=O)N[C@@H](C(C)C)C(=O)N1 ; strain or isolate: IFM41088 ; result: >80 µg/mL
CCCCCCCCCCC[C@H]1NC(=O)[C@H](CC(C)(C)C)NC(=O)[C@H](CCCCN)NC(=O)CNC(=O)[C@@H]1C ; result: 128 µg/mL
CN(Cc1ccc(NS(=O)(=O)c2ccccc2)cc1)CC(O)(Cn1cncn1)c1ccc(F)cc1F ; strain or isolate: 98 003 ; method: resazurin ; result: 3.29 µg/mL
CCOC(=O)c1sc(SC)cc1-c1ccc(Br)cc1 ; strain or isolate: AF-27 ; result: >100 µg/mL
O=C1CCC(c2ccc(Oc3ccccc3)cc2)=NN1Cc1n[nH]c(=S)n1-c1ccc(Br)cc1 ; result: 14 µg/mL
CC(C)c1ccc(NS(=O)(=O)c2ccc(CN(C)CC(O)(Cn3cncn3)c3ccc(F)cc3F)cc2)cc1 ; strain or isolate: 98 003 ; method: resazurin ; result: 3.33 µg/mL
CCCCCCCCC[C@H]1NC(=O)[C@H](CC(C)(C)C)NC(=O)[C@H](CCCN)NC(=O)CNC(=O)C1(F)F ; result: >128 µg/mL
CC[C@@]1(O)C[C@H](O[C@H]2C[C@H](N(C)C)[C@H](O[C@H]3C[C@H](O)[C@H](O[C@H]4CCC(=O)[C@H](C)O4)[C@H](C)O3)[C@H](C)O2)c2c(cc3c(c2O)C(=O)c2c(O)cccc2C3=O)[C@H]1C(=O)OC ; strain or isolate: NCPF 2010 ; result: >100 µM
Cc1ccc(C(C)C)cc1 ; strain or isolate: CECT2071 ; result: >20 µg/mL
CCCCCCCCC[C@@H]1CC(=O)NCC(=O)N[C@@H](CCCCN)C(=O)N[C@@H](CC(C)C)C(=O)N1 ; result: >128 µg/mL
c1ccc(-c2c(C(c3ccccc3)n3ccnc3)cnn2-c2ccccc2)cc1 ; result: >200 µM
CC(C)S(=O)(=O)Nc1ccc(CN(C)CC(O)(Cn2cncn2)c2ccc(F)cc2F)cc1 ; strain or isolate: 98 003 ; method: resazurin ; result: 29 µg/mL
CCOC(=O)c1sc(SC)cc1-c1ccc(-c2cccnc2)cc1 ; strain or isolate: AF-27 ; result: 50 µg/mL
O=C1CS[C@H](c2ccc3c(c2)OCO3)N1c1nc(N2CCOCC2)n[nH]1 ; strain or isolate: 168.95 ; method: broth dilution ; result: 33.4 µg/mL
O=C1CCC(c2ccccc2)=NN1Cc1n[nH]c(=S)n1-c1ccc(Cl)cc1 ; result: 4 µg/mL
CCC(C)n1ncn(-c2ccc(N3CCN(c4ccc(OC[C@H]5CO[C@](Cn6cncn6)(c6ccc(Cl)cc6Cl)O5)cc4)CC3)cc2)c1=O ; strain or isolate: NCIM 902 ; result: <6.25 µg/mL
CCc1c(C(c2ccccc2)n2cncn2)cnn1-c1ccccc1 ; result: >200 µM
Cc1ccc(CC(=O)Nc2nc(-c3cccc(Cl)c3)cs2)cc1 ; strain or isolate: NCIM 902 ; result: 12.5 µg/mL
CCOC(=O)c1sc(SC)c(C(=O)OC)c1O ; strain or isolate: AF-27 ; result: 25 µg/mL
CC(=O)OC(CCCC12OC(C(=O)O)C(O)(C(=O)O)C(C(=O)O)(O1)C(OC(=O)CCCCCC/C=C/c1ccccc1)C2O)C(C)C/C=C/c1ccccc1 ; strain or isolate: 10569 ; result: 0.8 µg/mL
CC1S[C@H](c2ccc(Cl)cc2)N(c2nc(N3CCOCC3)n[nH]2)C1=O ; strain or isolate: 168.95 ; method: broth dilution ; result: 100 µg/mL
C[C@H]1[C@H](O)[C@@H](C)/C=C/C=C/C=C/C=C/C=C/C=C/C=C/[C@H](O[C@@H]2O[C@H](C)[C@@H](O)[C@H](N)[C@@H]2O)C[C@@H]2O[C@](O)(C[C@@H](O)C[C@@H](O)CC[C@H](O)[C@@H](O)C[C@@H](O)CC(=O)O[C@H]1C)C[C@H](O)[C@H]2C(=O)O ; strain or isolate: Clinical isolate ; method: XTT ; result: 1–2 µg/mL
O=C1CCC(c2ccc(Br)cc2)=NN1Cc1n[nH]c(=S)n1-c1ccc(Cl)cc1 ; result: 7 µg/mL
c1ccc(C(c2cnn(-c3ccccc3)c2)n2ccnc2)cc1 ; result: >200 µM
NC(=S)c1ccnc(SCc2ccc([N+](=O)[O-])cc2)c1 ; strain or isolate: 231 ; result: >500 µM
CN(Cc1ccc(S(N)(=O)=O)cc1)CC(O)(Cn1cncn1)c1ccc(F)cc1F ; strain or isolate: 98 003 ; method: resazurin ; result: 2.45 µg/mL
CCC1/C=C/C=C/C=C/C=C/C(OC2OC(C)C(O)C(N)C2O)CC2OC(O)(CC(O)CC(O)C(O)/C=C/C(=O)OC1C)CC(O)C2C(=O)O ; strain or isolate: CGMCC 3.3552 ; method: broth dilution ; result: 6.25 µg/mL
C=C1CC[C@H]2C[C@@H]1C2(C)C ; strain or isolate: IP 2279.94 ; method: broth dilution ; result: 6000 µg/mL
Cc1ccc(CSc2cc(C(N)=S)ccn2)cc1 ; strain or isolate: 231 ; result: 250 µM
CC1S[C@H](c2ccccc2)N(c2nc(N3CCOCC3)n[nH]2)C1=O ; strain or isolate: 168.95 ; method: broth dilution ; result: 100 µg/mL
NC(=S)c1ccnc(SCc2c(F)cccc2[N+](=O)[O-])c1 ; strain or isolate: 231 ; result: 250 µM
CCC(C)CCCCCCC1CC(=O)NCC(=O)N[C@@H](CCCN)C(=O)N[C@@H](C(C)C)C(=O)N1 ; strain or isolate: TIMM0063 ; result: >80 µg/mL
CCCc1c(C(c2ccccc2)n2cncn2)cnn1-c1ccccc1 ; result: >200 µM

Repeating the final 4 entries:

| structure | strain or isolate | method | result |
|---|---|---|---|
| CC1S[C@H](c2ccccc2)N(c2nc(N3CCOCC3)n[nH]2)C1=O | 168.95 | broth dilution | 100 µg/mL |
| NC(=S)c1ccnc(SCc2c(F)cccc2[N+](=O)[O-])c1 | 231 | - | 250 µM |
| CCC(C)CCCCCCC1CC(=O)NCC(=O)N[C@@H](CCCN)C(=O)N[C@@H](C(C)C)C(=O)N1 | TIMM0063 | - | >80 µg/mL |
| CCCc1c(C(c2ccccc2)n2cncn2)cnn1-c1ccccc1 | - | - | >200 µM |

Neighbouring rows are from separate reports. a–b is a range or a potency band.